Measurements reported in paper PMC10889057.

How the values were obtained:
[1] = molecular target: HIV-1 Env of isolate 246F3 (on pseudovirus) (HIV-1)
[2] = molecular target: HIV-1 Env of isolate 25710 (on pseudovirus) (HIV-1)
[3] = molecular target: HIV-1 Env of isolate 398F1 (on pseudovirus) (HIV-1)
[4] = molecular target: HIV-1 Env of isolate BJOX2000 (on pseudovirus) (HIV-1)
[5] = molecular target: HIV-1 Env of isolate CE0217 (on pseudovirus) (HIV-1)
[6] = molecular target: HIV-1 Env of isolate CE1176 (on pseudovirus) (HIV-1)
[7] = molecular target: HIV-1 Env of isolate CH119 (on pseudovirus) (HIV-1)
[8] = molecular target: HIV-1 Env of isolate CNE55 (on pseudovirus) (HIV-1)
[9] = molecular target: HIV-1 Env of isolate CNE8 (on pseudovirus) (HIV-1)
[10] = molecular target: HIV-1 Env of isolate TRO11 (on pseudovirus) (HIV-1)
[11] = molecular target: HIV-1 Env of isolate X1632 (on pseudovirus) (HIV-1)
[12] = molecular target: HIV-1 Env of isolate X2278 (on pseudovirus) (HIV-1)

## WT CD4-Ig (from UniProt P01730 26-388) (Fc fusion)
[1]
  IC50, neutralization of 246F3 HIV-1 pseudovirus in TZM-bl cells: 25.2 µg/mL
[2]
  IC50, neutralization of 25710 HIV-1 pseudovirus in TZM-bl cells: 0.643 µg/mL
[3]
  IC50, neutralization of 398F1 HIV-1 pseudovirus in TZM-bl cells: 9.43 µg/mL
[4]
  IC50, neutralization of BJOX2000 HIV-1 pseudovirus in TZM-bl cells: 10.1 µg/mL
[5]
  IC50, neutralization of CE0217 HIV-1 pseudovirus in TZM-bl cells: 13.6 µg/mL
[6]
  IC50, neutralization of CE1176 HIV-1 pseudovirus in TZM-bl cells: 9.66 µg/mL
[7]
  IC50, neutralization of CH119 HIV-1 pseudovirus in TZM-bl cells: 30.2 µg/mL
[8]
  IC50, neutralization of CNE55 HIV-1 pseudovirus in TZM-bl cells: 30 µg/mL
[9]
  IC50, neutralization of CNE8 HIV-1 pseudovirus in TZM-bl cells: > 50 µg/mL
[10]
  IC50, neutralization of TRO11 HIV-1 pseudovirus in TZM-bl cells: > 50 µg/mL
[11]
  IC50, neutralization of X1632 HIV-1 pseudovirus in TZM-bl cells: 2.59 µg/mL
[12]
  IC50, neutralization of X2278 HIV-1 pseudovirus in TZM-bl cells: 19.6 µg/mL
